Results of unrelated studies side by side (data: NIAID ChemDB).

Shared fields: growth or infection tests; agent: Vesicular stomatitis virus; method: cytopathic effect; measure: EC50

Neighbouring rows are from separate reports. ECn: concentration that inhibits the pathogen or its effect by n%.

smiles | cell line | value
Nc1nccc2c1ncn2[C@@H]1C[C@H](CO)[C@@H](O)[C@H]1O | HeLa | 2 µg/mL
CCc1cn([C@H]2C[C@H](O)[C@@H](CO)S2)c(=O)[nH]c1=O | E6SM | >2000 µM
Nc1ncnc2c1ncn2[C@@H]1O[C@H](C#CCl)[C@@H](O)[C@H]1O | E6SM | 70 µM
OCCOC(CO)n1cnc2cc(Cl)c(Cl)cc21 | HeLa | >200 µg/mL
Nc1nc(Cl)c2ncn(C[C@H]3CC[C@@H](CO)C3)c2n1 | HeLa | >10 µg/mL
CCCc1cn([C@H]2C[C@H](O)[C@@H](CO)S2)c(=O)[nH]c1=O | E6SM | >50 µM
Nc1nccc2c1ncn2[C@@H]1C[C@H](CO)[C@@H](O)[C@H]1O | L929 | 1 µg/mL
O=c1[nH]c(=O)n([C@H]2C[C@H](O)[C@@H](CO)O2)cc1C1CCCC1 | E6SM | >1200 µM
NC(=O)c1ncn([C@@H]2O[C@H](CO)[C@@H](O)[C@H]2O)n1 | E6SM | 192 µM
OCCOC(CCO)n1cnc2cc(Cl)c(Cl)cc21 | HeLa | >200 µg/mL
Nc1nc(Cl)c2nnn(C[C@H]3CC[C@@H](CO)C3)c2n1 | E6SM | >200 µg/mL
Nc1nccc2c1ncn2[C@@H]1C[C@H](CO)[C@@H](O)[C@H]1O | PRK | 0.2 µg/mL
Nc1nc(N)c2nnn(C[C@H]3CC[C@@H](CO)C3)c2n1 | E6SM | >400 µg/mL
NC(=O)c1ccnc([C@@H]2O[C@H](CO)[C@@H](O)[C@H]2O)c1 | HeLa | >400 µg/mL
Nc1ncnc2c1ncn2[C@@H]1C=C[C@@H](O)[C@H]1O | PRK | 0.2 µg/mL
Nc1ccn([C@@H]2C[C@H](CO)[C@@H](O)[C@H]2O)c(=O)n1 | HeLa | 2 µg/mL
Nc1nccc2c1ncn2[C@@H]1C[C@H](CO)[C@@H](O)[C@H]1O | E6SM | 0.7 µg/mL
OCCOC([C@H](O)CO)n1cnc2cc(Cl)c(Cl)cc21 | HeLa | >200 µg/mL
O=c1[nH]c(=O)n([C@H]2C[C@H](O)[C@@H](CO)S2)cc1C1CC1 | E6SM | >1500 µM
OC[C@H]1O[C@@H](n2cnc3cc(Cl)c(Cl)cc32)[C@H](O)[C@H]1O | HeLa | >10 µg/mL
O=c1[nH]c(=O)n([C@H]2C[C@H](O)[C@@H](CO)O2)cc1/C=C/Br | E6SM | >400 µg/mL
OC[C@H]1O[C@@H](n2cnc3cc(Cl)c(Cl)cc32)[C@H](O)[C@@H]1O | HeLa | >10 µg/mL
Nc1nccc2c1ncn2[C@@H]1O[C@H](CO)[C@@H](O)[C@H]1O | PRK | 0.3 µg/mL

Repeating the final 3 entries:

smiles | cell line | value
O=c1[nH]c(=O)n([C@H]2C[C@H](O)[C@@H](CO)O2)cc1/C=C/Br | E6SM | >400 µg/mL
OC[C@H]1O[C@@H](n2cnc3cc(Cl)c(Cl)cc32)[C@H](O)[C@@H]1O | HeLa | >10 µg/mL
Nc1nccc2c1ncn2[C@@H]1O[C@H](CO)[C@@H](O)[C@H]1O | PRK | 0.3 µg/mL